Results of unrelated studies side by side (data: NIAID ChemDB).

Shared fields: tests in culture; species: HIV-1; endpoint: fold resistance

Fold resistance has wild type as its base. Rows are shuffled and stem from different studies. An empty or dashed field is not shown.

compound | cell line | method | strain | mutations | value
CCOCn1c(Cc2ccccc2)c(CC)c(=O)[nH]c1=O | CEM | syncytia | IIIB | RT-Y181I | 431
Cc1cc2[nH]cnc2cc1NC(=O)COc1ccc(Cl)cc1C(=O)c1cc(F)cc(C(F)(F)F)c1 | HeLa + HELA CD4+ | β-galactosidase | HXB2 | RT-L100I | ~1
Cc1ccc(C2CC2)c(-c2ccc3c(c2C)CCCO3)c1[C@H](OC(C)(C)C)C(=O)O | MT-4 | luminescence | NL4-3 | PI-resistant ARP-11803 (L33F/E34T/K43T/G48V/I54S/L63P/A71V/V82A) | 1
CCc1c(Sc2cc(C)cc(C)c2)n(COCCO)c(=O)[nH]c1=O | CEM | syncytia | IIIB | Nevirapine resistant (RT Y181C) | 83.3
Cc1cc(S(N)(=O)=O)ccc1NC(=O)COc1ccc(Cl)cc1C(=O)c1cc(F)cc(C(F)(F)F)c1 | HeLa + HELA CD4+ | β-galactosidase | HXB2 (RT-K103N Y181C) Recombinant | RT-K103N Y181C | ~1
CC(C)=CCOc1cc(NC(=S)c2ccoc2C)ccc1Cl | CEM + CEM-SS | cytopathic effect / XTT | Costatolide-resistant (RT Y188H) | RT-Y188H | 10
O=C1Nc2ccc(Cl)cc2[C@@](/C=C/C2CC2)(C(F)(F)F)N1 | - | - | - | RT-K101E | <6
CC(C)=CCN1Cc2cccc3[nH]c(=O)n(c23)CC1C | CEM + CEM-SS | cytopathic effect / XTT | UC82-R (RT-Y181C) | RT-Y181C | 44
CC(C)=CCOc1cc(NC(=S)c2ccoc2C)ccc1Cl | CEM + CEM-SS | p24 | NL4-3 | RT-L100I | 67
CCc1c(Cc2cc(C)cc(C)c2)n(COCCO)c(=O)[nH]c1=O | CEM | syncytia | IIIB | RT-Y181C | 46.4
Cc1cc(S(N)(=O)=O)ccc1NC(=O)COc1ccc(Cl)cc1C(=O)c1cc(C#N)cc(C#N)c1 | HeLa + HELA CD4+ | β-galactosidase | HXB2 | RT-V106A | ~1
CCc1c(Sc2ccccc2)n(COCc2ccccc2)c(=S)[nH]c1=O | CEM | syncytia | IIIB (TIBO 82150) (RT-L100I) | RT-L100I | 10
O=C1Nc2ccc(F)c(F)c2[C@@](/C=C/C2CC2)(C(F)(F)F)N1 | - | - | - | RT-K103N Y181C | 57.9
CCC(=O)c1ccc(F)c([C@@H]2C[C@@H]2NC(=O)Nc2ccc(C#N)cn2)c1O | TZM-bl | β-galactosidase / luminescence | LAI | NNRTI-resistant (RT M230L) | 22.6
Cc1cc(C#N)cc(C(=O)c2cc(Cl)ccc2OCC(=O)Nc2cnc(S(N)(=O)=O)cc2C)c1 | MT-4 | cytopathic effect / propidium iodide | Nevirapine-resistant (RT Y181C) | RT-Y181C | ~1
CC(C)=CCOc1cc(NC(=S)c2ccsc2C)ccc1Cl | CEM + CEM-SS | cytopathic effect / XTT | Calanolide A-resistant (RT T139I) | RT-T139I | 3.75
Cc1ccc(C2CC2)c(-c2ccc3c(c2)CCCO3)c1[C@H](OC(C)(C)C)C(=O)O | MT-4 | luminescence | NL4-3 | NRTI/NNRTI resistant NLAY351753 | 1

Repeating the first 2 entries:

compound,cell line,method,strain,mutations,value
CCOCn1c(Cc2ccccc2)c(CC)c(=O)[nH]c1=O,CEM,syncytia,IIIB,RT-Y181I,431
Cc1cc2[nH]cnc2cc1NC(=O)COc1ccc(Cl)cc1C(=O)c1cc(F)cc(C(F)(F)F)c1,HeLa + HELA CD4+,β-galactosidase,HXB2,RT-L100I,~1